Measurements reported in PubChem BioAssay AID504761 (Drosophila RNAi Screening Center, 2011)
In all, the deposit lists about 22,000 reagents; below is a random part of those with a known target gene and a result. In the full data, 116 (0.52%) got an active call. 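Calls depend on retest data that are not deposited; infection was ranked per plate without normalising between plates; the unit of the infection score is not given.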 Raw values vary from plate to plate and are shown uncorrected. Reagents against one gene are numbered here. Names joined by + are all predicted targets of the reagent. Further read-outs or replicates are left out here. No sequences are given here. Not given: the amount of reagent, the time to read-out.

Aim: 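Insect host genes that dengue virus relies on to spread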 (primary screen)
Cells: D.Mel-2 cells from Drosophila
Reagent: long dsRNA against Drosophila genes
Conditions: infection with dengue virus type 2; dose and infection time not stated
Read-out: 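Cells stained for dengue envelope protein and imaged; percent of infected cells per well on duplicate plates, ranked by infection, with stained nuclei counted for cell number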
Scale: infection score: higher = more virus-infected cells; cell count: higher = more cells in the well
Call rule: 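Very low infection ranking in both replicate wells (chance probability at most 0.065), then a retest showing infection dropped 1.5-fold or more at p below 0.05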
Calls: active = confirmed: knock-down lowers infection; inactive = not picked or not confirmed

| gene knocked down | reagent | infection score, replicate 1 | infection score, replicate 2 | cell count, replicate 1 | activity call |
| --- | --- | --- | --- | --- | --- |
| pita | 1 | 2.78 | 0.64 | 5728 | inactive |
| pita | 2 | 1.27 | 7.82 | 6319 | inactive |
| Coq6 | 1 | 4.29 | 10.2 | 6270 | inactive |
| Coq6 | 2 | 1.16 | 11.4 | 516 | inactive |
| CG10931 | 1 | 1.46 | 6.88 | 6901 | inactive |
| BomS5 | 1 | 2.31 | 20.9 | 5493 | inactive |
| CG8839 | 1 | 10 | 31.6 | 5591 | inactive |
| b | 1 | 0.92 | 3.06 | 6330 | inactive |
| b | 2 | 9.56 | 32.9 | 6152 | inactive |
| alpha-Est1 | 1 | 2.68 | 10.2 | 6682 | inactive |
| scpr-A + scpr-C | 1 | 1.8 | 2.85 | 6629 | inactive |
| Tsp74F | 1 | 7.18 | 7.97 | 6618 | inactive |
| CG18493 | 1 | 0.23 | 1.85 | 6978 | inactive |
| Hsp68 | 1 | 0.96 | 6.44 | 1250 | inactive |
| pall | 1 | 18.6 | 11.7 | 4213 | inactive |
| CG14915 | 1 | 2.34 | 1.92 | 6141 | inactive |
| CG14915 | 2 | 8.52 | 8.65 | 6457 | inactive |
| Prosbeta6 | 1 | 0.28 | 0.56 | 726 | inactive |
| Dgat2 | 1 | 14.4 | 6.51 | 4971 | inactive |
| CG11226 | 1 | 8.03 | 2.89 | 6465 | inactive |
| PCID2 | 1 | 12.3 | 0.41 | 5604 | inactive |
| PCID2 | 2 | 15.1 | 4.61 | 5454 | inactive |
| thoc5 | 1 | 17 | 28.7 | 5825 | inactive |

A stretch taken from the entries so far, for reference:
| gene knocked down | reagent | infection score, replicate 1 | infection score, replicate 2 | cell count, replicate 1 | activity call |
| --- | --- | --- | --- | --- | --- |
| CG14915 | 1 | 2.34 | 1.92 | 6141 | inactive |
| CG14915 | 2 | 8.52 | 8.65 | 6457 | inactive |
